Measured values from several laboratories, pooled; numbers as filed in NIAID ChemDB.

ICn is the concentration giving n% inhibition. Inhibition is in % at the dose shown (toxicity tests: loss of growth or viability). An empty or dashed field is not shown. Lines come from different laboratories, so protocols vary. MIC50, MIC90 and the like: level of inhibition, or share of isolates inhibited. ECn is the concentration giving n% inhibition of infection, replication or growth.

smiles | kind | agent | strain or isolate | cells | target | read by | endpoint | tested at | value
COc1ccc(N2CCN(c3cncc(-c4ccc(CN)cc4)n3)CC2)cc1OC | target | Cytomegalovirus | - | - | UL97 kinase | - | IC50 | - | <100 µM
COc1ccc(CO)c(CNc2ccc3nc(N)nc(N)c3c2Cl)c1 | target | Cryptosporidium parvum | TYPE 1 | - | Dihydrofolate reductase | - | IC50 | - | 0.023 µM
CCC(CC)O[C@@H]1C=C(C(=O)O)C[C@H](N)[C@H]1NC(C)=O | culture | Influenza A virus | Influenza A/Virginia/2/88R (H3N2) | MDCK | - | - | EC50 | - | <0.01 µM
Nc1ccccc1S(=O)(=O)O | culture | Herpes simplex virus | - | Human amnion AV3 cells | - | cytopathic effect | inhibition | 5 µg/mL | 20%
CCOC(=O)/C=C/[C@H](C[C@@H]1CCNC1=O)NC(=O)[C@@H](CC(=O)[C@@H](NC(=O)c1cc(C)on1)C(C)C)Cc1ccc(F)cc1 | culture | Rhinovirus | Isolate 3 | OHIO HELA-I | - | cytopathic effect / visual reading | EC50 | - | 0.02 µg/mL
Oc1cccc(C=Nc2ccccc2O)c1 | culture | Cryptococcus neoformans | LMM 820 | - | - | - | MIC99 | - | 2.8 µg/mL
COc1cc(-c2ccc(N=Nc3ccc4c(S(=O)(=O)O)cc(S(=O)(=O)O)c(N)c4c3O)c(OC)c2)ccc1N=Nc1ccc2c(S(=O)(=O)O)cc(S(=O)(=O)O)c(N)c2c1O | culture | Adenovirus | TYPE 3 | Human amnion AV3 cells | - | cytopathic effect | inhibition | 10 µg/mL | 0%
COc1ccc(CC2CCc3nc(N)nc(N)c3C2)cc1OC | target | Cryptosporidium parvum | TYPE 2 | - | Dihydrofolate reductase | - | IC50 | - | 0.4 µM
O=C(Nc1cc(S(=O)(=O)O)cc2cc(S(=O)(=O)O)cc(O)c12)c1ccccc1 | culture | Adenovirus | TYPE 3 | Human embryonic lung cells | - | cytopathic effect | inhibition | 10 µg/mL | 20%
Nc1nc(N)c2c(n1)CCC(Cc1ccsc1)C2 | target | Cryptosporidium parvum | TYPE 2 | - | Dihydrofolate reductase | - | IC50 | - | 1 µM
O=C(Nc1ccc2cc(S(=O)(=O)[O-])cc(S(=O)(=O)[O-])c2c1)c1ccccc1 | culture | Adenovirus | TYPE 3 | Human embryonic lung cells | - | cytopathic effect | inhibition | 10 µg/mL | 0%
Oc1ccc(-c2cncc(Nc3ccc(F)c(Cl)c3)n2)cc1 | target | Cytomegalovirus | - | - | UL97 kinase | - | IC50 | - | <1 µM
CC(C)(C)C1CCc2nc(N)nc(N)c2C1 | target | Cryptosporidium parvum | TYPE 2 | - | Dihydrofolate reductase | - | IC50 | - | 0.21 µM
c1ccc(N2CCN(c3cncc(-c4ccoc4)n3)CC2)cc1 | target | Cytomegalovirus | - | - | UL97 kinase | - | inhibition | 1 µM | <50%
Fc1ccc(N2CCCCC2)c(NC(=S)c2ccncc2)c1 | host protein | - | - | - | SAPK4 | kinase activity | inhibition | 10 µM | -7%
Nc1ccc2cc([N+](=O)[O-])cc(S(=O)(=O)[O-])c2c1 | culture | Herpes simplex virus | - | Human amnion AV3 cells | - | cytopathic effect | inhibition | 10 µg/mL | 0%
C=CCc1ccc(O)c(OC)c1 | culture | Candida albicans | 2920 | - | - | turbidity | MIC90 | - | 500 µg/mL
COc1cc(CC2CCc3nc(N)nc(N)c3C2)cc(OC)c1OC | target | Cryptosporidium parvum | TYPE 2 | - | Dihydrofolate reductase | - | IC50 | - | 0.56 µM
CCOC(=O)c1ccc(OCCC2CCN(c3ccc(C)nn3)CC2)cc1 | culture | Rhinovirus | 363 (ICAM-1 receptor group 32) | KB | - | neutral red | EC50 | - | 8.13 µM
Oc1ccccc1N=Cc1ccc(F)cc1 | culture | Cryptococcus neoformans | LMM 820 | - | - | - | MIC99 | - | 4 µg/mL
Fc1ccc(N2CCN(c3cncc(-c4ccoc4)n3)CC2)c(F)c1 | target | Cytomegalovirus | - | - | UL97 kinase | - | inhibition | 1 µM | <50%
Nc1nc(N)c2c(CNc3cc(Cl)c(-n4cccc4)c(Cl)c3)csc2n1 | target | Cryptosporidium parvum | TYPE 2 | - | Dihydrofolate reductase | - | IC50 | - | >10 µM
Nc1ccc2cc(S(=O)(=O)O)cc(S(=O)(=O)O)c2c1 | culture | Rhinovirus | - | Human embryonic lung cells | - | cytopathic effect | inhibition | 50 µg/mL | 70%
Oc1ccc(O)c(C=Nc2ccccc2O)c1 | culture | Cryptococcus gattii | L-28/02 | - | - | - | MIC99 | - | 8 µg/mL
Nc1nc(N)c2c(n1)Cc1c-2ccc(Cl)c1Cl | target | Cryptosporidium parvum | TYPE 1 | - | Dihydrofolate reductase | - | IC50 | - | >10 µM
OCc1ccc(-c2cncc(N3CCN(c4cccc5[nH]ccc45)CC3)n2)cc1 | target | Cytomegalovirus | - | - | UL97 kinase | - | inhibition | 10 µM | >15%
COc1cc(NCc2cnc3nc(N)nc(N)c3n2)cc(OC)c1OC | target | Cryptosporidium parvum | TYPE 1 | - | Dihydrofolate reductase | - | IC50 | - | 1.3 µM
Oc1ccccc1N=Cc1ccccc1 | culture | Cryptococcus neoformans | C-3-1 | - | - | - | MIC99 | - | 2 µg/mL

3 of the rows above, restated:

smiles	kind	agent	strain or isolate	cells	target	read by	endpoint	tested at	value
Oc1cccc(C=Nc2ccccc2O)c1	culture	Cryptococcus neoformans	LMM 820	-	-	-	MIC99	-	2.8 µg/mL
CCOC(=O)/C=C/[C@H](C[C@@H]1CCNC1=O)NC(=O)[C@@H](CC(=O)[C@@H](NC(=O)c1cc(C)on1)C(C)C)Cc1ccc(F)cc1	culture	Rhinovirus	Isolate 3	OHIO HELA-I	-	cytopathic effect / visual reading	EC50	-	0.02 µg/mL
Fc1ccc(N2CCCCC2)c(NC(=S)c2ccncc2)c1	host protein	-	-	-	SAPK4	kinase activity	inhibition	10 µM	-7%